Data: patent US20070123537A1, “Quinazoline derivatives for the treatment of herpesviral infections” (GPC Biotech AG, priority 2003, published 2007)
Structures were worked out from names or drawings and are uncertain.

Amino acid sequences for entries named in this document (tags omitted).
UniProt P16788, whole entry: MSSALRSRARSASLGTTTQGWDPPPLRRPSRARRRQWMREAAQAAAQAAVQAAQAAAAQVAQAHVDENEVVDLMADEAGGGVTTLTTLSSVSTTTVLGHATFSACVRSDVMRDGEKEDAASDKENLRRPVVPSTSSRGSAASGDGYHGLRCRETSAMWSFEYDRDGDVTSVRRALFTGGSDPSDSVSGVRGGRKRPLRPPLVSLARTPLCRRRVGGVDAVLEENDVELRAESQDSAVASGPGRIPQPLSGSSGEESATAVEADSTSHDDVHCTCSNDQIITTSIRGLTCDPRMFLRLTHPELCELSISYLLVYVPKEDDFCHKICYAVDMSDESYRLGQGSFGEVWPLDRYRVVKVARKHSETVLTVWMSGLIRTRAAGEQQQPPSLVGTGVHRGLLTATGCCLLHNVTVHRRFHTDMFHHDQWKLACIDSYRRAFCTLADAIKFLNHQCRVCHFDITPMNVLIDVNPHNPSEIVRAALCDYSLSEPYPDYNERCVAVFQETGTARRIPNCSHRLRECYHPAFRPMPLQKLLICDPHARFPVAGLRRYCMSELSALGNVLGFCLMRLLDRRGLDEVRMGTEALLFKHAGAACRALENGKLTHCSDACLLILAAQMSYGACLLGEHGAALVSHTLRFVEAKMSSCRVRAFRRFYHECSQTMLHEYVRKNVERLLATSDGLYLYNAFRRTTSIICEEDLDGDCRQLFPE

Assays:
viral kinase UL-97 = viral kinase UL-97 (Human cytomegalovirus, UniProt P16788); test: UL97 Kinase-Assay on Immobilon Plate; type: biochemical
Method: UL97 Kinase-Assay on Immobilon Plate
The effect of quinazoline derivatives on the activity of the viral kinase UL-97 was tested. This kinase is derived from human cytomegalovirus (HCMV) (Marschall, M., et al., J. Gen Virol. 2001, 82,1439-1450.). The UL-97 gene was cloned into a baculovirus vector in order to produce GST (glutathione S-transferase) fusion protein. Insect cells (Sf9) were infected and GST-UL-97 purified via glutathione affinity columns according to standard procedures.
The UL-97 kinase reaction was performed as described (Marschall M. et aL, J. Gen. Virol. 2001, 82, 1439-1450). Briefly, 10 μl Assay buffer (3 μM ATP, 60 μg/ml myelin basic protein (MBP) as substrate), 1,0 μCi gamma[^33P]ATP and 10 μp, Basic buffer (20mM Tris-HCl 7.5, 500 μM MnCl2, 1 mM DTT (dithiothreitol)) were given to the test tube before adding various concentrations of the quinazoline derivatives. The reaction was started by adding 0.2 μl UL97 kinase, purified from infected Sf9-insect cells as described above. The total volume was adjusted with Basic buffer to a final volume of 30 μl. […]
Measuring Incorporation of Radioactivity
An Immobilon plate (Millipore) was rinsed with 50 μl methanol/well. […] After addition of 50 μl scintillation cocktail (Roth, Germany) per well incorporation of radioactivity was measured using a Betareader (Wallac) and enzymatic activity calculated.

HCMV AD-169 = test: HCMV infection of HFFs, reporter gene based antiviral assay; type: cell-based, Human Cytomegalovirus (HCMV); conditions: 3 μM compound, reporter gene activity after seven days
Method: To examine the effect of the quinazoline derivatives on HCMV replication, HCMV infections were performed in a cellular system.
Human foreskin fibroblasts (HFFs) were grown to subconfluency in 12 well plates and infected with 0.25 tissue culture infectious doses of HCMV AD-169 carrying a reporter gene (HCMV based antiviral assay). Quinazoline derivatives (stocks in DMSO (Dimethylsulfoxide)) were diluted in culture medium to the concentrations indicated and added to the cells immediately after virus adsorption. The success of infection (reporter gene expressing cells) and the lack of cytotoxicity of the compound (confluent cell layer) was monitored by microscopy. After seven days, cell layers were harvested, lysed and subjected to the automated fluorometry measurement of reporter gene activity. Each panel refers to a determination in quadruplicate (infection in duplicate, lysate preparation and measurement in duplicate).

UL 97 = UL 97 (Human cytomegalovirus, UniProt P16788); test: UL 97 in-cell activity: protection of HEK 293 cells ectopically expressing UL 97 against toxic GCV; conditions: at 10 μM; HEK 293 cells expressing UL 97
Method: Furthermore, clinical isolates of HCMV like R5, R3 and R2 were used for the infection of HFFs in a plaque reduction assay under the conditions described above. Parallel experiments on phenotype characterization , gene sequencing and UL 97-in-cell-activity assay (GCV phosphorylation) with cloned UL 97 were performed (Marschall, M., et al., J. Gen Virol. 2001, 82, 1439-1450).
Furthermore, (IC50)-values of HCMV replication was measured for some compounds in a cellular system. Some quinazoline derivatives protect HEK 293 cells ectopially expressing UL 97 against toxic concentrations of GCV (10 and 20 μM respectively).

Brc1cccc(Nc2ncnc3ccccc23)c1
inhibition of UL 97-kinase activity (in words) (viral kinase UL-97): potent inhibitors
IC50 (viral kinase UL-97; read-out: UL 97 IC 50, 3 μM ATP, MBP substrate): 400 nM
HCMV AD 169 Replication [%] of control at 3 μM (HCMV AD-169): 70%
UL 97 GCV [%] growth at conc. [μM] (UL 97): 47% 10 μM
